From patent US20040251215A1, “Method for killing organicsms in the course of conveying ballast water in ships and apparatus thereof” (priority 2003, published 2004)

Assay: Influence of OH on quality of ballast water

hydroxyl radical [OH] showed an Ammonium salt (OH solution 0.63 mg/L) of 0.4 µg/L, an As (OH solution 0.63 mg/L) of 0.43 µg/L and a Cd (OH solution 0.63 mg/L) of 0.7 µg/L. It also gave a Cu (OH solution 0.63 mg/L) of 2.6 µg/L, a DO (OH solution 0.63 mg/L) of 13.24 mg/L and a Fe (OH solution 0.63 mg/L) of 8.6 µg/L. The Hg (OH solution 0.63 mg/L) was 0.031 µg/L, the Nitrate (OH solution 0.63 mg/L) was 184.1 µg/L and the Nitrite (OH solution 0.63 mg/L) was 1.1 µg/L. It also gave a Pb (OH solution 0.63 mg/L) of 1.6 µg/L, a Phosphate (OH solution 0.63 mg/L) of 32.9 µg/L and a TOC (OH solution 0.63 mg/L) of 2.39 mg/L. For the same substance, the Zn (OH solution 0.63 mg/L) was 68.6 µg/L, the pH (OH solution 0.63 mg/L) was 8.12 and the COD (OH solution 0.63 mg/L, untreated 0.54 mg/L) was “Not detectable”. The “Ammonium salt, ratio of change” value (OH solution 0.63 vs 0 mg/L) was −99.5%, the “As, ratio of change” value (OH solution 0.63 vs 0 mg/L) was −2.3% and the “COD, ratio of change” value (OH solution 0.63 vs 0 mg/L) was −100%. For the same substance, the “Cd, ratio of change” value (OH solution 0.63 vs 0 mg/L) was −12.5%, the “Cu, ratio of change” value (OH solution 0.63 vs 0 mg/L) was −38.1% and the “DO, ratio of change” value (OH solution 0.63 vs 0 mg/L) was “+77.2%”. The “Electric conductivity, ratio of change” value (OH solution 0.63 vs 0 mg/L) was “+0.6%”, the “Fe, ratio of change” value (OH solution 0.63 vs 0 mg/L) was −40.3% and the “Hg, ratio of change” value (OH solution 0.63 vs 0 mg/L) was −6.1%. For the same substance, the “Nitrate, ratio of change” value (OH solution 0.63 vs 0 mg/L) was “+17.4%”, the “Nitrite, ratio of change” value (OH solution 0.63 vs 0 mg/L) was −98.4% and the “Pb, ratio of change” value (OH solution 0.63 vs 0 mg/L) was −75.4%. The “Phosphate, ratio of change” value (OH solution 0.63 vs 0 mg/L) was “+27.0%”, the “Salinity, ratio of change” value (OH solution 0.63 vs 0 mg/L) was 0% and the “TOC, ratio of change” value (OH solution 0.63 vs 0 mg/L) was “+42.3%”. For the same substance, the “Turbidity, ratio of change” value (OH solution 0.63 vs 0 mg/L) was −50.0%, the “Zn, ratio of change” value (OH solution 0.63 vs 0 mg/L) was “+298.8%” and the “pH, ratio of change” value (OH solution 0.63 vs 0 mg/L) was −0.1%.
